The target of this assay is human Syntenin PDZ1-2. It is filed as binding. The settings on record: pH 7.5.

In the case of “E66-77: synthetic FITC-labeled peptide corresponding to the C-terminus of the SARS-CoV-2 E protein (NSSRVPDLLV; FITC-labeled)”, the “KD, FITC-labeled SARS-CoV-2 C-terminal peptide binding to syntenin PDZ1-2” value is listed as “not determinable”.

The values are drawn from publication PMC9610207 (Viruses, 2022).
